Experimental findings from patent publication US7053234B2 (Amgen Inc., priority 2000, dated 2006) are described below.

Amino acid sequences for entries named in this document (tags omitted).
UniProt P47768, whole entry: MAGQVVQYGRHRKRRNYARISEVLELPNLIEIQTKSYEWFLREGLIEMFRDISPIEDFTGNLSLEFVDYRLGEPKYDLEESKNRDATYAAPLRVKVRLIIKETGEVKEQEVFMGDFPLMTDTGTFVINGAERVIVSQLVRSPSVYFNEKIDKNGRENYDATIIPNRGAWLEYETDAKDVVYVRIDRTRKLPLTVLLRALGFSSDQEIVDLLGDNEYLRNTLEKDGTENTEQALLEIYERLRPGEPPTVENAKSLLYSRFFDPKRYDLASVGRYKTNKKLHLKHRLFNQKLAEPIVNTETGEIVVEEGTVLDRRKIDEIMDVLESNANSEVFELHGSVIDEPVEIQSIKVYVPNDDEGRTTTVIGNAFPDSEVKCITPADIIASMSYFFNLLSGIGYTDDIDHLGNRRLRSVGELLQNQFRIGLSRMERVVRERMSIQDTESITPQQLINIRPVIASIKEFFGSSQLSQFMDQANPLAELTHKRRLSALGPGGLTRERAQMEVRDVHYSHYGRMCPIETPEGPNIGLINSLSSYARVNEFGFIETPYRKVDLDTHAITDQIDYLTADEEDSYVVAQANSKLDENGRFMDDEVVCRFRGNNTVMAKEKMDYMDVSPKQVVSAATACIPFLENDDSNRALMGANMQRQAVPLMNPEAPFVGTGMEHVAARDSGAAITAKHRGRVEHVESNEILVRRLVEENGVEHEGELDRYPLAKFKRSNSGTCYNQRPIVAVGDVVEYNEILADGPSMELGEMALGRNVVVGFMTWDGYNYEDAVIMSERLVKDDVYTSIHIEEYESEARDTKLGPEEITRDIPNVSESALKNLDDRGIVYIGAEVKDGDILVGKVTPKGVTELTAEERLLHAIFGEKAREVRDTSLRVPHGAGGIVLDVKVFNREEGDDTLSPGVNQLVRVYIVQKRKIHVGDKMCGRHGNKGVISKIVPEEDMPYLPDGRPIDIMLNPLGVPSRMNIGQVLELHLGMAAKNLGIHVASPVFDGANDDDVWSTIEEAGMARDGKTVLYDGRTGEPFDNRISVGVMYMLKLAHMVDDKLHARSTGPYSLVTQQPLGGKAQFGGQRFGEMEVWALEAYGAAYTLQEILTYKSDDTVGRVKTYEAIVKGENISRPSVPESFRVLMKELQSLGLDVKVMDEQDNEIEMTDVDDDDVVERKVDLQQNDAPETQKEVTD
UniProt Q2G0N5, whole entry: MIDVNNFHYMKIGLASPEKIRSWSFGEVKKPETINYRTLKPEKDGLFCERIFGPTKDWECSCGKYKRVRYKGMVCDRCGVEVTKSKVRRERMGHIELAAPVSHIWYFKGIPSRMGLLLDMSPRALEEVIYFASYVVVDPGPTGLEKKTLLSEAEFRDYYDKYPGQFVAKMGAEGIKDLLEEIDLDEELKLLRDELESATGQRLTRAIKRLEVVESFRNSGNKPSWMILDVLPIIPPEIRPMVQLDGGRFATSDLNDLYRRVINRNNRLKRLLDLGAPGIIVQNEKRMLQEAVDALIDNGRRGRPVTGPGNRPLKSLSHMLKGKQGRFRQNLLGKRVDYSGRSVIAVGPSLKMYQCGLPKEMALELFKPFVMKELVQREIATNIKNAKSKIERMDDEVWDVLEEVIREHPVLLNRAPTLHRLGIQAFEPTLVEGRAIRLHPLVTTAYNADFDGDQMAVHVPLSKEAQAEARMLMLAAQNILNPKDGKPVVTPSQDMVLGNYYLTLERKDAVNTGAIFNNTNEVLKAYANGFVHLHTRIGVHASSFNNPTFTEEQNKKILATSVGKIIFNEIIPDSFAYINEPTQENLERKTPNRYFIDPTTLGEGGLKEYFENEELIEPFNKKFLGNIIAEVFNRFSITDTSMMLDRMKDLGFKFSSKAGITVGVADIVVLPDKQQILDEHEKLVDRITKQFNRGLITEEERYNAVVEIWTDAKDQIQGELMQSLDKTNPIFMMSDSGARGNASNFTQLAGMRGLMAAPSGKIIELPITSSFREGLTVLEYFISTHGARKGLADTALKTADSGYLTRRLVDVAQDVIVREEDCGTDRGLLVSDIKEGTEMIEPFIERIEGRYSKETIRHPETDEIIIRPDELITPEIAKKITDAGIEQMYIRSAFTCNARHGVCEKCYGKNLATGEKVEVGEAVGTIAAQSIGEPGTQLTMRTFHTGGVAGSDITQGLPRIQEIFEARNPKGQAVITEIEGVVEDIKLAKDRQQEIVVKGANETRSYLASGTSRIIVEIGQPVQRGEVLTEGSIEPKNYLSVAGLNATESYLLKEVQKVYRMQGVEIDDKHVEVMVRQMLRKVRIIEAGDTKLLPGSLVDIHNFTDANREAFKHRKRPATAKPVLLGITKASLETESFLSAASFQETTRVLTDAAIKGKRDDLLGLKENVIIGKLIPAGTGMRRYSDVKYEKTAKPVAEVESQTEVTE
UniProt Q2FW32, whole entry partner: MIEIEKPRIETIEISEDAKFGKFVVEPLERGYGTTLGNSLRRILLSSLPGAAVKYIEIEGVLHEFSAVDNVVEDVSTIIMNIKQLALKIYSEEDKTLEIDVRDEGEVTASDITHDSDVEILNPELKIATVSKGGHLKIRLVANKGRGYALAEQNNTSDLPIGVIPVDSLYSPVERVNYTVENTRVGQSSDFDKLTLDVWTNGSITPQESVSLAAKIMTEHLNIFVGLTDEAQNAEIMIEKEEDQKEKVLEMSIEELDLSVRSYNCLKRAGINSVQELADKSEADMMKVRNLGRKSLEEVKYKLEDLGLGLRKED

One experiment relates to S. aureus. In words: MIC determination, S. aureus. The experiment is classed as cell-based. As to conditions: Table 2.
Another experiment deals with E. coli (tolC). Description: MIC determination, E. coli (tolC). The experiment is classed as cell-based. As to conditions: Table 2. The procedure: For MIC determinations for selected bacteria, log phase growing bacteria are re-suspended at 1×10^5 bacteria per mL in LB medium. The compound is added and two-fold dilutions are made. The final volume in the 96-well plate is about 100 uL. The plate is incubated at 37° C. in the dark with shaking. After 16 hours of incubation, growth is monitored by reading A600 or by visual inspection. MIC is defined as the minimum concentration of drug resulting in inhibition of visible growth of bacterial under the conditions described (above) in National Committee for Clinical Laboratory Standards 1993. Methods for dilution antimicrobial susceptibility tests for bacteria that grow aerobically. Approved standard M7-A3; National Committee for Clinical Laboratory Standards: Villanova, Pa.

The target in the next experiment is RNA-pol S. aureus (Staphylococcus aureus, UniProt P47768+Q2G0N5). Description: RNA polymerase inhibition assay (S. aureus enzyme). The note with it: read-out: RNA-pol IC50 (μM) S. aureus; Table 2.

With `O=C(Nc1ccc(Cl)c(Cl)c1)Nc1cc(C(=O)Nc2cccc(Cl)c2)cc(C(F)(F)F)c1N1CCCC1`, in the experiment with S. aureus, the “MIC (μM) S. aureus” value is on record as “+++ (less than 40 μM)”. Besides, in the experiment with E. coli (tolC), the “MIC (μM) E. coli (tolC)” value is on record as “+ (greater than 125 μM)”. The half-inhibitory concentration (IC50) at RNA-pol S. aureus was under 10 µM.
